Measured values from several laboratories, pooled; numbers as filed in NIAID ChemDB.

Shared fields: whole-cell or culture tests; organism: HIV-2; strain: ROD; cell line: MT-4; read by: cytopathic effect / trypan blue; measure: EC50

ECn: concentration that inhibits the pathogen or its effect by n%. Rows are shuffled and stem from different studies.

SMILES	value
CC(C)(C)[Si](C)(C)OC[C@@H]1CC[C@H](n2cnc3c(=O)n(CC(=O)OCc4ccccc4)cnc32)O1	>10 µM
Nc1ncnc2c1ncn2CCOCP(=O)(O)O	7.5 µM
CS(=O)(=O)c1ccc(OP(=O)(OC[C@@H]2C=C[C@H](n3cnc4c(N)ncnc43)O2)OC[C@@H]2C=C[C@H](n3cnc4c(N)ncnc43)O2)cc1	133 µM
Cc1cn([C@@H]2O[C@H](CO[Si](C)(C)C(C)(C)C)C3(OS(=O)(=O)C=C3N)[C@H]2O[Si](C)(C)C(C)(C)C)c(=O)n(CC(=O)N[C@@H](CC(=O)O)C(=O)O)c1=O	145 µM
Cc1cn([C@H]2CC[C@@H](CO)O2)c(=O)[nH]c1=O	3.9 µM
C[C@@H](Cn1cnc2c(N)nc(N)nc21)OCP(=O)(O)O	7.9 µM
Cc1cn([C@@H]2O[C@H](CO[Si](C)(C)C(C)(C)C)[C@@H](O)[C@H]2O[Si](C)(C)C(C)(C)C)c(=O)n(CCO)c1=O	40 µM
Cc1cn([C@@H]2O[C@H](CO[Si](C)(C)C(C)(C)C)[C@@]3(OS(=O)(=O)C=C3N)[C@H]2O[Si](C)(C)C(C)(C)C)c(=O)[nH]c1=O	>10 µM
CSc1ccc(OP(=O)(OC[C@@H]2C=C[C@H](n3cnc4c(=O)[nH]cnc43)O2)OC[C@@H]2C=C[C@H](n3cnc4c(=O)[nH]cnc43)O2)cc1	>250 µM
Cc1cn([C@H]2C[C@H](N=[N+]=[N-])[C@@H](CO[Si](C)(C)C(C)(C)C)O2)c(=O)n(CC(=O)O)c1=O	>50 µM
CSc1ccc(OP(=O)(OC[C@@H]2CC[C@H](n3cnc4c(N)ncnc43)O2)OC[C@@H]2CC[C@H](n3cnc4c(N)ncnc43)O2)cc1	66 µM
CCc1cn([C@@H]2O[C@H](CO[Si](C)(C)C(C)(C)C)[C@@H](O)[C@H]2O[Si](C)(C)C(C)(C)C)c(=O)n(CC(=O)O)c1=O	>2 µM
Cc1cn([C@@H]2O[C@H](CO[Si](C)(C)C(C)(C)C)[C@@]3(OS(=O)(=O)C=C3N)[C@H]2O[Si](C)(C)C(C)(C)C)c(=O)n(CC(=O)N[C@@H](CCC(=O)O)C(=O)O)c1=O	250 µM
Cc1cn([C@@H]2O[C@H](CO[Si](C)(C)C(C)(C)C)[C@@H](O)[C@H]2O[Si](C)(C)C(C)(C)C)c(=O)n(CC(=O)O)c1=O	>10 µM
CS(=O)(=O)c1ccc(OP(=O)(OC[C@@H]2CC[C@H](n3cnc4c(=O)[nH]cnc43)O2)OC[C@@H]2CC[C@H](n3cnc4c(=O)[nH]cnc43)O2)cc1	≥250 µM

The last 2 rows once more:

SMILES | value
Cc1cn([C@@H]2O[C@H](CO[Si](C)(C)C(C)(C)C)[C@@H](O)[C@H]2O[Si](C)(C)C(C)(C)C)c(=O)n(CC(=O)O)c1=O | >10 µM
CS(=O)(=O)c1ccc(OP(=O)(OC[C@@H]2CC[C@H](n3cnc4c(=O)[nH]cnc43)O2)OC[C@@H]2CC[C@H](n3cnc4c(=O)[nH]cnc43)O2)cc1 | ≥250 µM